{"source": "patent US20250019422A1", "about": "(MAX PLANCK GESELLSCHAFT ZUR F RDERUNG DER WISSENSCHAFTEN E V, published 2025)", "binders": {"B1": {"name": "Re9F06-Re5D06R15_Tandem (bispecific antibody)", "chain": "EGSQVQLVESGGGLVQAGGSLRLSCAASGRTFSNDALGWFRQAPRKEREFVAAINWNSGTYYADSVKGRFTISRDNAKNTVYLQMNSLKPEDTAVYSCAAASDYGLPREDFLYDYWGQGTQVTVSETEGEGEGGGEGGEGSQVQLVESGGGLVEPGGSLRLSCAASGITLDYYAMGWFREAPGKEREGVARIRNSDGSTNYADSVKGRFTMSRDNAKDTYYLQMNSLEPEDTADYYCAYGPLTKYGSSWYWPYEYDYWGEGTEVTVSS"}, "B2": {"name": "Re9F06-Re5D06R28_Tandem (bispecific antibody)", "chain": "B1 chain with A165I, I168S, I192W, S195N, Y250H"}, "B3": {"name": "Re30H02 (VHH)", "VHH": "QVQLVESGGDSVQPGDSLRLSCAISGFTLDYYTIGWFRQAPGKEREGVSCIGSSDSSTSYADAVKGRFTISSDNAKNTVYLQMNNLKPEDTAVYYCAAGPATYYGGNWHHTCHANAMHYWGKGTLVTVSS"}, "B4": {"name": "Ma2H07 (VHH)", "VHH": "QVQLVESGGGLVQPGGSLRLSCAYSGITLDYYAIGWFRQAPGKEREGVSYISSSNDRTDYADSVKGRFTISRDNAKNTVFLQMNSLQPEDTAVYYCATVTGTYYSGRWYYNWHPEAVDYWGKGTLVTVSS"}, "B5": {"name": "Ma2E06 (VHH)", "VHH": "QVQLVESGGDLVQPRGSLRLSCAASGITLDYYAIGWFRQAPGKEREGVSYISNTNDKTDYADSVKGRFTISRDNAENTVFLQMNSLQPEDTAVYYCATVPGTYYGGRWYYTWHPEAVRYWGKGTQVTVSS", "notes": "also called Ma02E06"}, "B6": {"name": "Ma2F10 (VHH)", "VHH": "B4 VHH with S53G, Q87E"}, "B7": {"name": "Re32D08 (VHH)", "VHH": "QVQLVESGGGLVSPGGSLKLSCAASGLTLDYYGIGWFRQVPGKEREGVSCLGVPDNRTLYAPSVKGRFTISRDNAKNTFYLEMNSLNPEDSAVYYCAAGPVVPGHMCRIPTPLGYDYWGQGTQVTVSS"}, "B8": {"name": "Re32B11 (VHH)", "VHH": "QVQLVESGGGLVQPGGSLRLSCATSGITLDYYAIGWFLQAPGKEREGVSCMRNSDGRTVYAPSVKGRFTISRDNAKKMVYLEMNNLKSEDTGVYYCAAGPLPPGISCRIPTPLGYDDWGQGTQVTVSS"}, "B9": {"name": "Re32G06 (VHH)", "VHH": "B8 VHH with T24I, I34V, V48I, S54W, R72S, N85S, I105T"}, "B10": {"name": "Re32F03 (VHH)", "VHH": "QVQLVESGGGLVQPGGSLRLSCATSGITLDYYAIGWFLQAPGKEREGVACMRSSDERSLYAPSVKGRFTISRDNAKKTVYLEMNSLKPEDTGVYYCASGSVVPGTMCRIPTPLGYDDWGQGTQVTVSS"}, "B11": {"name": "Re5D06R15 (VHH)", "VHH": "QVQLVESGGGLVQPGGSLRLSCAASGITLDYYAMGWFREAPGKEREGVARIRNSDGSTNYADSVKGRFTMSRDNAKDTYYLQMNSLEPEDTADYYCAYGPLTKYGSSWYWPYEYDYWGQGTQVTVSS"}}, "note": "Residue numbers refer to the chain shown, from its start."}
{"biological_target": "SARS-CoV-2 spike protein, original Wuhan strain (SARS-CoV-2 (Wuhan strain))", "experiment": "cell-based or functional assay", "units": {"Lowest neutralizing concentration (pM)": "pM"}}
{"binder": "B1", "Lowest neutralizing concentration (pM)": 50}
{"binder": "B2", "Lowest neutralizing concentration (pM)": 50}
{"binder": "B3", "Lowest neutralizing concentration (pM)": 50}
{"binder": "B4", "Lowest neutralizing concentration (pM)": 170}
{"binder": "B5", "Lowest neutralizing concentration (pM)": 170}
{"binder": "B6", "Lowest neutralizing concentration (pM)": 50}
{"binder": "B7", "Lowest neutralizing concentration (pM)": 70}
{"binder": "B8", "Lowest neutralizing concentration (pM)": 50}
{"binder": "B9", "Lowest neutralizing concentration (pM)": 50}
{"binder": "B10", "Lowest neutralizing concentration (pM)": 50}
{"binder": "B11", "Lowest neutralizing concentration (pM)": 50}
